Measured values from several laboratories, pooled; numbers as filed in NIAID ChemDB.

Shared fields: cytotoxicity tests; cell line: PBMC; read-out: CC50

Blank or dashed fields: not listed here. CCn is the concentration with n% toxicity to the cells. Conditions beyond the fields shown may differ between rows.

smiles,method,value
CC(=O)N[C@H]1[C@@H](OP(=O)(O)OP(=O)(O)OC[C@H]2O[C@@H](n3ccc(=O)[nH]c3=O)C[C@@H]2N=[N+]=[N-])O[C@H](CO)[C@@H](O)[C@@H]1O,-,100 µM
Cc1cn([C@H]2C=C[C@@H](COC(=O)NCCc3ccc(Cl)cc3)O2)c(=O)[nH]c1=O,tetrazolium,>100 µM
NC(N)=NC(=O)c1ccc(N2CCCCCC2)nc1,fluorescence,112 µM
Cc1c2ccnc(Cl)c2cc2c3cn(C)ccc-3nc12,-,>2.5 µM
C[C@@H](CN[C@H](CN[C@H](CN[C@H](CNCCC(N)=O)Cc1ccc(O)cc1)Cc1ccc(O)cc1)Cc1ccc(O)cc1)NC[C@H](Cc1ccc(O)cc1)NC[C@H](Cc1ccc(O)cc1)NC[C@@H](N)Cc1ccc(O)cc1,MTS,75 µM
O=C(NCCc1ccc2c(n1)NCCC2)NC1CCOCC1,-,50 µM
CCn1cc(C(=O)O)c(=O)c2cc(F)c(N3CCN(c4ccccc4OC)CC3)c(OC(F)F)c21,-,11 µM
O=c1[nH]cnc2c1ncn2[C@H]1C=C(F)[C@@H](CO)C1,-,>100 µM
C[C@]1(CO)CO[C@@H](n2cnc3c(=O)[nH]c(F)nc32)C1,-,1 µM
COc1cc(/C=C/C(=O)CC(=O)/C=C/c2ccc(O)c(OC)c2)ccc1O,-,10 µM
CCCCCCCCCCCCCCCCCCOCCOP(=O)(CO[C@H](C)Cn1cnc2c(N)ncnc21)OCc1ccccc1C,luminescence,1.44 µM
CCNC(=O)c1cn(C/C(C)=C/CP(=O)(OCOC(=O)OC(C)C)OCOC(=O)OC(C)C)nn1,absorbance,80.6 µM
Cc1cn([C@H]2C=C(F)[C@@H](CO)C2)c(=O)[nH]c1=O,-,>100 µM
Cc1cn([C@H]2C[C@H](N=[N+]=[N-])[C@@H](COC(=O)CCCCCCCCCCC(=O)O)O2)c(=O)[nH]c1=O,XTT,>0.5 µM
COc1ccc2ccc3c(c2c1)OC1(CCN(Cc2ccc(C#N)cc2)CC1)NC3=O,MTT,1.2 µM
Nc1ncnc2c1ncn2[C@@H]1C=C(F)[C@H](CO)C1,-,>100 µM
COc1cc(NC(=O)NCC2CCc3ccccc3N2)cc(OC)c1,-,50 µM
CCc1c(C)[nH]c(=O)c(N(C)C)c1Cc1cc(C)cc(C)c1,-,>1 µM
Cc1cn([C@H]2C[C@H](F)[C@@H](COC(=O)CCCCCCCCCCC(=O)O)O2)c(=O)[nH]c1=O,XTT,>0.5 µM
CCCc1ccc(-c2cn(C/C(C)=C/CP(=O)(OCOC(=O)OC(C)C)OCOC(=O)OC(C)C)nn2)cc1,absorbance,50.2 µM
O=c1[nH]cnc2c1ncn2[C@H]1O[C@@H](CO)C=C1F,-,>100 µM
NC(=O)CCNC(=O)c1ccccc1SCc1ccc([N+](=O)[O-])o1,XTT,>50 µM
O=C(NCCc1ccc2c(n1)NCCC2)Nc1cccc(Cl)c1F,-,16 µM
Cc1cn([C@H]2C=C[C@@H](COC(=O)NCCc3cccs3)O2)c(=O)[nH]c1=O,tetrazolium,>100 µM
O=c1ccn([C@@H]2O[C@@H](CO)C=C2F)c(=O)[nH]1,-,>100 µM
C=C(C)[C@@H]1CC[C@]2(CCNCCN3CCN(Cc4ccccc4)CC3)CC[C@]3(C)[C@H](CC[C@@H]4[C@@]5(C)CC[C@H](OC(=O)CC(C)(C)C(=O)O)C(C)(C)[C@@H]5CC[C@]43C)[C@@H]12,MTS,>1 µM
O=C(NCCc1ccc2c(n1)NCCC2)NCc1ccccc1,-,50 µM
CC(C)C(Cc1ccccc1)NC(=O)C[C@@H]1O[C@@H]1[C@H](Cc1ccccc1)NC(=O)[C@@H](NC(=O)NCc1ccccc1)C(C)(C)S(C)(=O)=O,-,>10 µM
CC(C)(CS(=O)(=O)[O-])[NH2+]C(=O)C(CC(F)(OC(F)(F)C(F)(OC(F)(F)C(F)(OC(F)(F)C(F)(F)C(F)(F)F)C(F)(F)F)C(F)(F)F)C(F)(F)F)C(F)(OC(F)(F)C(F)(OC(F)(F)C(F)(OC(F)(F)C(F)(F)C(F)(F)F)C(F)(F)F)C(F)(F)F)C(F)(F)F,-,54.6 µg/mL
Nc1ccn([C@@H]2CS[C@H](CO)O2)c(=O)n1,MTT,>1000 µM
Oc1ccc(-c2c3nc(c(-c4ccc(O)cc4O)c4ccc([nH]4)c(-c4ccc(O)cc4O)c4nc(c(-c5ccc(O)cc5O)c5ccc2[nH]5)C=C4)C=C3)c(O)c1,-,>100 µM
Nc1nc(=O)n([C@H]2O[C@@H](CO)C=C2F)cc1F,-,>100 µM
CC(C)c1ccccc1NC(=O)NCC1CCc2ccccc2N1,-,50 µM
Cc1ccc(-c2c([C@H](OC(C)(C)C)C(=O)O)c(C)nc3ccccc23)cc1C,-,149 µM
CN(C)c1ccc(/C=N/NC(=O)Cn2nc(-c3ccccc3)c3c2-c2ccccc2S(=O)(=O)N3C)cc1,-,14.4 µM
Cc1cn([C@H]2C=C[C@@H](CO)O2)c(=O)[nH]c1=O,XTT,>0.5 µM
Nc1ccn([C@@H]2CS[C@H](CO)O2)c(=O)n1,luminescence,>1 µM
CCOC(=O)N[C@H](C(=O)N[C@@H](Cc1ccccc1)[C@H]1O[C@H]1CC(=O)NC(Cc1ccccc1)C(C)C)C(C)(C)S(C)(=O)=O,-,>10 µM
Cc1cn([C@H]2C[C@H](N=[N+]=[N-])[C@@H](CO)O2)c(=O)[nH]c1=O,XTT,>1 µM
Nc1nc(NC2CC2)c2ncn([C@H]3CO[C@@H](CO)O3)c2n1,MTT,>250 µM
CC(C)C(Cc1ccccc1)NC(=O)C[C@@H]1O[C@@H]1[C@H](Cc1ccccc1)NC(=O)[C@@H](NC(=O)Cc1ccsc1)C(C)(C)S(C)(=O)=O,-,>10 µM
COc1ccc(-c2c3nc(c(-c4ccc(OC)cc4)c4ccc([nH]4)c(-c4ccc(OC)cc4)c4nc(c(-c5ccc(OC)cc5)c5ccc2[nH]5)C=C4)C=C3)cc1,-,>200 µM
Nc1nc2c(ncn2[C@@H]2C=C[C@H](CO)C2)c(=O)[nH]1,-,>100 µM
Nc1ncnc2c1ncn2C1OC(CO)C=C1F,-,>100 µM
NCC(=O)N1CCC[C@H]1C(=O)NCC(N)=O,-,>500 µM
Nc1nc2c(ncn2[C@@H]2O[C@@H](CO)C=C2F)c(=O)[nH]1,-,>100 µM
NC(=O)c1cn([C@H]2CS[C@H](CO)O2)cn1,-,>100 µM
Cc1cn([C@H]2C=C[C@@H](COC(=O)CCCCCCCCC(=O)O)O2)c(=O)[nH]c1=O,XTT,>0.5 µM
Nc1nccc2c1ncn2[C@@H]1O[C@H](CO)[C@@H](O)[C@H]1O,-,9.94 µM
Oc1ccc(-c2c3nc(c(-c4ccc(O)c(O)c4)c4ccc([nH]4)c(-c4ccc(O)c(O)c4)c4nc(c(-c5ccc(O)c(O)c5)c5ccc2[nH]5)C=C4)C=C3)cc1O,-,>100 µM
Cc1ccc(CCNC(=O)OC[C@@H]2C=C[C@H](n3cc(C)c(=O)[nH]c3=O)O2)cc1,tetrazolium,>100 µM
CC(C)C(Cc1ccccc1)NC(=O)C[C@@H]1O[C@@H]1[C@H](Cc1ccccc1)NC(=O)[C@@H](NC(=O)c1ccco1)C(C)(C)S(C)(=O)=O,-,>10 µM
Cc1onc(-c2ccccc2)c1NC(=S)NCCc1ccc2c(n1)NCCC2,-,50 µM
COc1ccc2[nH]c(C(=O)N3CCN(c4ncccc4NC(C)C)CC3)cc2c1,-,>10 µM
Nc1ccn([C@H]2C=C(F)[C@@H](CO)C2)c(=O)n1,-,>100 µM
Cn1cc(C(=O)O)c(=O)c2cc(F)c(N3CC=C(c4ccccc4)CC3)c(C(F)(F)F)c21,-,>1 µM
CN1c2c(-c3ccccc3)nn(CC(=O)N/N=C/c3ccccc3[N+](=O)[O-])c2-c2ccccc2S1(=O)=O,-,>100 µM
Cc1cn([C@H]2C=C[C@@H](CO)O2)c(=O)[nH]c1=O,tetrazolium,>100 µM
Cn1c2ccccc2c(=O)c2c(O)cccc21,-,12.4 µg/mL
COc1cc(/C=N/NC(=O)Cn2nc(-c3ccccc3)c3c2-c2ccccc2S(=O)(=O)N3C)cc(OC)c1OC,-,>100 µM
Nc1ccn([C@@H]2O[C@@H](CO)C=C2F)c(=O)n1,-,>100 µM
Cc1nc(C(CN)NC(=O)c2ccc(-c3ccc(F)c(F)c3)[nH]2)sc1CO,MTS,47.1 µM
COC(=O)c1cn(C/C(C)=C/CP(=O)(OCOC(=O)OC(C)C)OCOC(=O)OC(C)C)nn1,absorbance,40.9 µM
CCOC(=O)N[C@H](C(=O)N[C@@H](Cc1ccccc1)[C@H]1O[C@H]1CC(=O)NC(C(C)C)C(C)C)C(C)(C)S(C)(=O)=O,-,>10 µM
Nc1ccn([C@H]2O[C@@H](CO)C=C2F)c(=O)n1,-,>100 µM

A second listing of 7 rows from above:

COc1cc(NC(=O)NCC2CCc3ccccc3N2)cc(OC)c1 ; value: 50 µM
Cc1cn([C@H]2C=C[C@@H](COC(=O)NCCc3ccc(Cl)cc3)O2)c(=O)[nH]c1=O ; method: tetrazolium ; value: >100 µM
Nc1ccn([C@H]2O[C@@H](CO)C=C2F)c(=O)n1 ; value: >100 µM
O=C(NCCc1ccc2c(n1)NCCC2)Nc1cccc(Cl)c1F ; value: 16 µM
O=c1[nH]cnc2c1ncn2[C@H]1O[C@@H](CO)C=C1F ; value: >100 µM
COc1cc(/C=N/NC(=O)Cn2nc(-c3ccccc3)c3c2-c2ccccc2S(=O)(=O)N3C)cc(OC)c1OC ; value: >100 µM
Nc1ccn([C@@H]2CS[C@H](CO)O2)c(=O)n1 ; method: MTT ; value: >1000 µM